Experimental data as given in patent US20230192819A1 (TWIST BIOSCIENCE, published 2023).

Key:
[1] = target: T1, Acro S1 spike protein (SARS-CoV-2) (SARS-CoV-2, UniProt P0DTC2 16-685); test: Carterra SPR; panel B), table S1, row exp. date Sep-21
[2] = target: T1, Acro S1 spike protein (SARS-CoV-2); test: Carterra SPR; panel B), annotation in the right (grey) sensorgram
[3] = target: T1, Acro S1 spike protein (SARS-CoV-2); test: Carterra SPR; panel B), table S1, row exp. date Jun-21

B1: Antibody 1-7 (Fc fusion)
chain: EVQLVESGGGLVQPGGSLRLSCAASGGTFSSIGMGWFRQAPGKEREFVAAISWDGGATAYADSVKGRFTISADNSKNTVYLQMNSLKPEDTAVYYCAKEDVGKPFDWGQGTLVTVSS
Kd [1]: 62.1 pM
Kd [2]: < 62 pM
Kd [3]: 238 pM
koff [3]: 3.1e-05 s⁻¹
